Measurements published in patent US6905680B2, “Methods of treating HIV infected subjects” (Genetics Institute, Inc., priority 1994, dated 2005).

Tests used:
Assay type in all cases: cell-based, human
[1] = system: CD28^+, CD4^+ T cells; assay: Long term growth of CD4+ T cells in medium containing fetal calf serum (Example 2); conditions: RPMI 10% FCS
Excerpt: Another series of experiments tested whether the growth advantage of CD28 receptor stimulation was due to replacement of factors normally present in fetal calf serum.

[2] = system: CD28^+/CD4^+ T cells; assay: Cytokines secreted by expanded T cells, ELISA/bioassay (Example 6); conditions: with anti-CD3
[3] = system: peripheral blood lymphocytes; assay: Immunophenotype of PBL propagated 16 days (Example 4); conditions: day 16; plastic immobilized anti-CD3 G19-4
Excerpt: To examine the subsets of T cells that are expanded, PBL were propagated for 16 days using either anti-CD3 and IL-2 or anti-CD3 and anti-CD28. […] Mononuclear cells were isolated from blood by ficoll hypaque density gradient centrifugation. The cells were stained with CD4 and CD8 monoclonal antibodies, and analyzed for the percent positive cells on day 0. […] The cells were isolated from culture on day 16, and repeat staining for CD4 and CD8 antigens was done by flow cytometry. Data was gated on the lymphocyte population by forward angle light scatter and side scatter. By this analysis, the % CD4 and CD8 cells were 8.0% and 84.5% in the cells grown in IL-2, and 44.6% and 52.5% in the cells grown in CD28.

[4] = system: CD4^+ T cells; assay: Immunophenotype of enriched CD4+ T cells after 26 days in culture (Example 4); conditions: day 26 of culture, with anti-CD3

## IL-2: interleukin 2 added as exogenous growth factor, used with anti-CD3
[1]
  fold expansion of the initial culture: 10,000 fold
[2]; stimulation cycle S1
  GM-CSF: 2303 pg/mL
  IFN-γ: 1458 pg/mL
  IL-2: 20714 pg/mL
  IL-4: 16 pg/mL
  TNFα: 789 pg/mL
[2]; stimulation cycle S2
  GM-CSF: 51251 pg/mL
  IFN-γ: 16600 pg/mL
  IL-2: 20250 pg/mL
  IL-4: 964 pg/mL
  TNFα: 3221 pg/mL
[2]; stimulation cycle S3
  GM-CSF: 86418 pg/mL
  IFN-γ: 8617 pg/mL
  IL-2: 21282 pg/mL
  IL-4: 1153 pg/mL
  TNFα: 2899 pg/mL
[3]
  % CD4 cells: 8.0%
  % CD8 cells: 84.5%
[4]
  predominant cell phenotype: predominantly CD8^+
